The results in this text go back to article PMC2885667.

For at least one entry, the source does not settle the construct or the ends of the probe. For some of these results: Where cells or extracts were used, other partners may take part. For some of these results: At least one verdict rests on a figure or table, not on a statement of the authors.

Series [1] concerns the target PilG (recombinant) (Neisseria meningitidis) (UniProt Q7DDR1). Description: South-western (solid-phase overlay). To be noted: South-western: 0.25% gelatin, 0.5% BSA, 0.2% Triton X-100, 10 mM Tris/HCl, 5 mM beta-mercaptoethanol, 100 mM NaCl, pH 7.5, ~400 pmol biotinylated DNA, recombinant protein, residues 1-410.
The target of series [2] is PilG (native, inner membrane fraction) (Neisseria meningitidis H44/76) (UniProt Q7DDR1). Description: South-western (solid-phase overlay). To be noted: South-western: 0.25% gelatin, 0.5% BSA, 0.2% Triton X-100, 10 mM Tris/HCl, 5 mM beta-mercaptoethanol, 100 mM NaCl, pH 7.5; ~400 pmol biotinylated DNA; protein in an extract; single-stranded DNA.

In the case of “AACAACAACAAATGCCGTCTGAACCAACATGCCGTCTGAAAACAACAACAAC (double strand) [HH7,HH8]”, the binding result in series [1] was “binds”.
Take “CAACAACAACAACAGCCGTCTGAACCAAATTCAGACGGCAACAACAACAACA [T1]”: the binding result in series [2] and in series [1] (single-stranded DNA) was “binds” throughout.
“CAACAACAACAACAGCCGTCTGAACCAAATTCAGACGGCAACAACAACAACA (double strand) [T1T2]”: the binding result in series [1] is given as “binds”.
“GTTGTTGTTGTTTTCAGACGGCATGTTGGTTCAGACGGCATTTGTTGTTGTT [HH8]”: the binding result in series [1] (single-stranded DNA) was “binds”.
On to “CAACAACAACAACAGGCCTGTCATCCAAACTGACAGGCCAACAACAACAACA [T3]”, for which the binding result in series [1] (single-stranded DNA) was “binds”.
“CAACAACAACAACAGGCCTGTCATCCAAACTGACAGGCCAACAACAACAACA / TGTTGTTGTTGTTGGCCTGTCATTTTGGATGACAGGCCTGTTGTTGTTGTTG [T3T4]”: the binding result in series [1] is “binds”.
